Data: PMC10223265 (Viruses, 2023)

Test: general procedure: Fmoc solid-phase peptide synthesis
Settings: whole synthesis, 210 nm, scale of the general procedure 0.1 mmol

In the case of “MTWEEWDKKIEELIKKSEELIKKIEEQIKKQEESIKK(PEG4-TAKW)”, the “final HPLC purity” value is reported as 99% purity.
